Compound potency records, mixed from different reports. Data source: NIAID ChemDB in PubChem.

Shared fields: growth or infection tests; agent: Mycobacterium tuberculosis

Lines come from different laboratories, so protocols vary. a–b is a range or a potency band. A number after MIC or MFC names an inhibition level or a share of isolates. Blank or dashed fields: not listed here. MIC bound comes from a single tested concentration. ECn is the concentration giving n% inhibition of infection, replication or growth. Percent inhibition refers to the dose given; in toxicity tests it is the harm to the cells.

compound	strain or isolate	mutations	cells	method	conditions	measure	dose	result
N#CCC(=O)N/N=C/C(O)C(O)C(O)C(O)C(=O)O	H37Rv			BACTEC		inhibition	12.5 µg/mL	11%
Cn1cnc2c(-c3ccco3)ncnc21	H37Rv					EC50		>6.25 µg/mL
CC[C@@H](CO)NCCN[C@@H](CC)CO	20 strains					MIC50		0.125 µg/mL
COC(=O)/C(=C\c1ccc(/C=C(\C(=O)O)c2ccc(OC)cc2)o1)c1ccccc1	H37Rv			BACTEC		inhibition	12.5 µg/mL	21%
CONc1ncnc2c1n(C/C=C(\C)CC/C=C(\C)CC/C=C(\C)CCC=C(C)C)c[n+]2C						MIC		3.13 µg/mL
O=[N+]([O-])c1nccn1CCCCNc1ccnc2cc(Cl)ccc12	H37Rv					MBC		4.9–9.8 µg/mL
CC(=O)c1ccccc1Sc1nnc(N2CCN(c3nc(N4CCN(c5ccccc5)CC4)c4ccccc4n3)CC2)o1	H37Rv			BACTEC / fluorescence		inhibition	6.25 µg/mL	0%
Fc1ccccc1CSc1nc2ccccc2[nH]1	My 331/88					MIC		>125 µM
CCCCOc1ccc(NC(=O)OCCC[NH+]2CCCCC2)cc1	My 331/88					MIC		125 µM
CN(C)C(=O)/N=N/C(=O)N(C)C	H37Rv			BACTEC		inhibition	12.5 µg/mL	0%
CCn1cc(C(=O)N/N=C/c2ccc([N+](=O)[O-])o2)c(=O)c2ccccc21	H37Rv (ATCC 27294)			resazurin		MIC		6.25 µg/mL
CCCCN(CCCC)CCNc1ccc(C)c2sc3ccccc3c(=O)c12	H37Rv			BACTEC		MIC bound		>12.5 µg/mL
Cc1cccnc1Nc1nc(-c2ccccn2)c(Br)s1	H37Rv			fluorescence		EC90		<1 µM
N#Cc1ccc(NNC(=O)N2CCN(c3nc(N4CCN(c5ccccc5)CC4)c4ccccc4n3)CC2)cc1	H37Rv			BACTEC / fluorescence		inhibition	6.25 µg/mL	0%
C=CC1=C(C)C(=O)N/C1=C\c1[nH]c(Cc2[nH]c(/C=C3/NC(=O)C(C(C)SC(C)=O)=C3C)cc2CCC(=O)O)c(CCC(=O)O)c1C	H37Rv			BACTEC		MIC bound		>12.5 µg/mL
Cc1ccc(NC(=O)C(=S)Nc2ccc(C)cc2)cc1	H37Rv					MIC		37 µM
S=C(S)NCCN1CCNCC1	H37Rv			BACTEC		inhibition	12.5 µg/mL	-1%
NNC(=O)c1ccncc1	MDR					MIC		100 µg/mL
O=C(c1ccccc1)c1c(CO[N+](=O)[O-])n([O-])c2ccccc2[n+]1=O	KM-R					MIC		6.3 µg/mL
Nc1ccccc1NC(=S)C(=O)Nc1cccc2ccccc12	H37Rv					MIC		111 µM
Cc1cc(N2C(=O)CSC2=S)ccc1Cl	H37Rv			BACTEC		MIC bound		>12.5 µg/mL
CCn1cc(C(=O)N/N=C/c2ccc(Cl)cc2)c(=O)c2cc(Cl)ccc21	H37Rv (ATCC 27294)			resazurin		MIC		>100 µg/mL
CC(=N\NC(=O)c1ccc([N+](=O)[O-])o1)/C(Cl)=N/Nc1ccc(C)cc1	RCMB 010126					MIC		125 µg/mL
CN[C@@H]1[C@H](O[C@H]2[C@H](O[C@H]3[C@H](O)[C@@H](O)[C@H](N=C(N)N)[C@@H](O)[C@@H]3N=C(N)N)O[C@@H](C)[C@]2(O)C=O)O[C@@H](CO)[C@H](O)[C@H]1O	Praha 1	Streptomycin-resistant		visual reading / absorbance	14 d	MIC99		16 µM
Fc1ccc(CSc2nc3ccccc3[nH]2)cc1	My 331/88					MIC		125 µM
C=C1C(=O)[C@@]23CC[C@H]4C(C)(CCC[C@@]4(C)C(=O)OC)[C@@H]2CC[C@]1(O)C3	CS-R					MIC		6.3 µg/mL
O=C(N/N=C(/CS(=O)(=O)c1ccccc1)c1ccccc1)c1ccc([N+](=O)[O-])o1	RCMB 010126					MIC		15.63 µg/mL
O=[N+]([O-])c1cccc(F)c1CSc1nc2ccccc2[nH]1	My 331/88					MIC		62 µM
O=C(CCSCCC(=O)NNc1ccccc1)NNc1ccccc1	H37Rv			BACTEC		MIC bound		>12.5 µg/mL
COc1ccc(NC(=O)OCCC[NH+]2CCCCC2)cc1	My 331/88					MIC		1000 µM
O=Cc1ccc(NNC(=O)N2CCN(c3nc(N4CCN(c5ccccc5)CC4)c4ccccc4n3)CC2)cc1	H37Rv			agar / visual reading		inhibition	50 µg/mL	92%
O=[N+]([O-])c1ccc(CSc2nc3ccccc3[nH]2)c([N+](=O)[O-])c1	My 331/88					MIC		8 µM
O=C(O)c1ccc(NNC(=O)N2CCN(c3nc(N4CCN(c5ccccc5)CC4)c4ccccc4n3)CC2)cc1	H37Rv			agar / visual reading		MIC		100 µg/mL
CO[C@H]1/C=C/O[C@@]2(C)Oc3c(C)c(O)c4c(O)c(c5c(c4c3C2=O)NC2(CCN(CC(C)C)CC2)N=5)=NC(=O)/C(C)=C\C=C\[C@H](C)[C@H](O)[C@@H](C)[C@@H](O)[C@@H](C)[C@H](OC(C)=O)[C@@H]1C	Strain 85 (D516V)					MIC		0.25 µg/mL
O=S1(=O)OCOS(=O)(=O)OCO1	H37Rv			BACTEC		MIC bound		>12.5 µg/mL
CCCCCCCCO[C@H]1O[C@H](CO)[C@@H](O[C@H]2O[C@H](CO)[C@@H](N=[N+]=[N-])[C@@H]2O)[C@@H]1O	H37Rv					inhibition	6.25 µg/mL	17%
CCCCCOc1ccc(NC(=O)OCCC[NH+]2CCCCC2)cc1	My 331/88					MIC		32 µM
CO[C@H]1/C=C/O[C@@]2(C)Oc3c(C)c(O)c4c(O)c(c(/C=N/N5CCCCCCCCCCCC5)c(O)c4c3C2=O)NC(=O)/C(C)=C\C=C\[C@H](C)[C@H](O)[C@@H](C)[C@@H](O)[C@@H](C)[C@H](OC(C)=O)[C@@H]1C	H37Rv			BACTEC		inhibition	12.5 µg/mL	100%
NC1[C@H]2CN(c3nc4c(cc3F)c(=O)c(C(=O)O)cn4-c3ccc(F)cc3F)C[C@@H]12	37 strains (drug-resistant)					MIC90		>4 µg/mL
C=CCN1[C@@H](c2ccccc2)CC2(C[C@H]1c1ccccc1)N=c1c(c3c4c5c(C)c(O)c3c(O)c1=NC(=O)/C(C)=C\C=C\[C@H](C)[C@H](O)[C@@H](C)[C@H](O)[C@H](C)[C@H](OC(C)=O)[C@H](C)[C@@H](OC)/C=C/O[C@@](C)(O5)C4=O)N2	H37Rv					MIC		0.02 µg/mL
CCn1cc(C(=O)N/N=C/c2ccc([N+](=O)[O-])o2)c(=O)c2cc(Cl)ccc21	H37Rv (ATCC 27294)			resazurin		MIC		>100 µg/mL
CCCCCCCCO[C@H]1O[C@H](CO[C@H]2O[C@H](CO)[C@@H](OC)[C@@H]2O)[C@@H](O)[C@@H]1O	H37Rv					EC50		>6.25 µg/mL
NC(=S)NNC(=S)S	H37Rv			BACTEC		inhibition	12.5 µg/mL	100%
O=[N+]([O-])c1ccccc1Sc1nnc(N2CCN(c3nc(N4CCN(c5ccccc5)CC4)c4ccccc4n3)CC2)o1	H37Rv			agar / visual reading		inhibition	12.5 µg/mL	92%
CCn1cc(C(=O)N/N=C/c2ccc(Br)s2)c(=O)c2ccccc21	H37Rv (ATCC 27294)			resazurin		MIC		>100 µg/mL
Cc1nc(-[n+]2nc(-c3ccncc3)nn2-c2ccccc2)sc1C.[Br-]	H37Rv			BACTEC		MIC bound		>12.5 µg/mL
O=C(NNc1ccccc1)N1CCN(c2nc(N3CCN(c4ccccc4)CC3)c3ccccc3n2)CC1	H37Rv			BACTEC / fluorescence		inhibition	6.25 µg/mL	0%
c1coc(-c2ncnc3c2ncn3C2CCOCC2)c1	H37Rv					EC50		>6.25 µg/mL
Cn1c(=O)c2c(nc3[nH]c(=O)c(Br)cn32)n(C)c1=O	H37Rv			resazurin		inhibition	6.25 µg/mL	7%
Cc1ccc(S(=O)(=O)C/C(=N/NC(=O)c2ccc([N+](=O)[O-])o2)c2ccc([N+](=O)[O-])cc2)cc1	RCMB 010126					MIC		125 µg/mL
CC1COc2c(N3CCN(C)CC3)c(F)cc3c(=O)c(C(=O)O)cn1c23	82 strains					MIC50		1 µg/mL
CCOc1ccc(NC(=O)OCCC[NH+]2CCCCC2)cc1	My 331/88					MIC		250 µM
NNC(=O)C(Cc1cnc[nH]1)NC(=O)CNC(=O)C(CSC(c1ccccc1)(c1ccccc1)c1ccccc1)NC(=O)OCc1ccccc1	H37Rv			BACTEC		MIC bound		>12.5 µg/mL
Cc1c(NC(=O)C(C)Sc2nnc(-c3ccco3)n2-c2ccccc2)c(=O)n(-c2ccccc2)n1C	H37Rv			resazurin		inhibition	6.25 µg/mL	3%
O=C(O)c1ccc(Sc2nnc(N3CCN(c4nc(N5CCN(c6ccccc6)CC5)c5ccccc5n4)CC3)o2)cc1	H37Rv			agar / visual reading		MIC		100 µg/mL
NC(=O)c1cnccn1	20 strains					MIC90		100 µg/mL
Cc1ccc(S(=O)(=O)OCC(OS(=O)(=O)c2ccc(C)cc2)C2OC(c3ccccc3)OC3COC(c4ccccc4)OC32)cc1	H37Rv			BACTEC		inhibition	12.5 µg/mL	20%
CC(C)=CCC/C(C)=C/CC/C(C)=C/CC/C(C)=C/Cn1c[n+](C)c2ncnc(N)c21						inhibition	6.25 µg/mL	38%
CO[C@H]1/C=C/O[C@@]2(C)Oc3c(C)c(O)c4c(O)c(c(/C=N/N5CCN(C)CC5)c(O)c4c3C2=O)NC(=O)/C(C)=C\C=C\[C@H](C)[C@H](O)[C@@H](C)[C@@H](O)[C@@H](C)[C@H](OC(C)=O)[C@@H]1C	20 strains					MIC50		1 µg/mL
Fc1cccc(Cl)c1CSc1nc2ccccc2[nH]1	My 331/88					MIC		62 µM
NC(N)=N[C@H]1[C@H](O)[C@@H](O)[C@H](OCCO[C@@H]2O[C@H](CO)[C@@H](O)[C@H](O)[C@H]2O)[C@@H](N=C(N)N)[C@@H]1O	666					MIC		>100 µg/mL
O=C(NC1CCCCC1)C(=S)Nc1ccccc1O	H37Rv					MIC		24.7 µM
CCCCCCCCCCCCOc1cccc(NC(=O)OCCC[NH+]2CCCCC2)c1	My 331/88					MIC		32 µM
CO[C@H]1/C=C/O[C@@]2(C)Oc3c(C)c(O)c4c(O)c(c5c(c4c3C2=O)NC2(CCNCC2)N=5)=NC(=O)/C(C)=C\C=C\[C@H](C)[C@H](O)[C@@H](C)[C@@H](O)[C@@H](C)[C@H](OC(C)=O)[C@@H]1C	ATCC 35837 (ethambutol-resistant)					MIC		2 µg/mL
Clc1ccc(CSc2nc3ccccc3[nH]2)cc1Cl	My 331/88					MIC		>62 µM
c1ccc(Cn2cnc3c(-c4cccs4)ncnc32)cc1	H37Rv		VERO			EC50		<6.25 µg/mL
Fc1cccc(CSc2nc3ccccc3[nH]2)c1	My 331/88					MIC		125 µM
CCn1cc(C(=O)N/N=C/c2ccncc2)c(=O)c2ccccc21	H37Rv (ATCC 27294)			resazurin		MIC		>100 µg/mL
Clc1nc(-c2cccs2)c2ncn(C3CCOCC3)c2n1	H37Rv					EC50		>6.25 µg/mL
COC(=O)C1=CO[C@H](C)[C@H]2CN3CCC4(C(=O)Nc5ccccc54)C3C[C@@H]12	H37Rv			BACTEC		MIC bound		>12.5 µg/mL
Cc1ccc(NC(=O)C(=S)Nc2ccccc2O)cc1	H37Rv					MIC		24.7 µM
Cc1nc(Nc2ccccc2)sc1C(=O)CC(=O)C(=O)NC1C2CC3CC(C2)CC1C3	H37Rv			BACTEC		MIC bound		>6.25 µg/mL
N#Cc1ccc(Sc2nnc(N3CCN(c4nc(N5CCN(c6ccccc6)CC5)c5ccccc5n4)CC3)o2)cc1	H37Rv			agar / visual reading		inhibition	12.5 µg/mL	93%
CC(C)N=C(N)N(OCCCOc1cc(Cl)c(Cl)cc1Cl)C(=N)N	H37Rv					MIC		8 µg/mL
Cn1c(=O)nc2n(-c3cccc(F)c3)c3ccccc3nc-2c1=O	H37Rv			BACTEC		MIC bound		>12.5 µg/mL
CCCCCCCCO[C@H]1O[C@H](CO[C@@H]2[C@@H](OCCCCCCCC)O[C@H](CO)[C@H]2N)[C@@H](O[C@@H]2O[C@H](O)[C@@H](N)[C@@H]2O)[C@@H]1O	H37Rv					EC50		>6.25 µg/mL